These are literature values, as cited in PMC9321718 (Pharmaceuticals, 2022).

On the set-up of the data set: method as in doi:10.1016/j.foodres.2009.06.006. Conditions: cited from earlier work.

Where two headings read alike, the source gives them in different places.

In the case of `C=CCc1ccc(O)c(OC)c1` [Eugenol, 4-allyl-2-methoxyphenol], the complexation constant by setting is: (α and γ forms of CD) 10 to 100 M⁻¹; (β-form of CD) 1000 M⁻¹.
